Results of unrelated studies side by side (data: NIAID ChemDB).

Common to all: enzyme or target tests; species: HIV-1; target: Integrase; endpoint: inhibition

An empty or dashed field is not shown.

compound,method,dose,value
CN(Cc1ccc(Cl)c(Cl)c1)C(=O)/C=C(\O)C(=O)O,strand transfer,70 µM,100%
COc1ccc(S(=O)(=O)Nc2cc(Cl)c3ccc(/C=C/c4ccc(O)cc4)nc3c2O)cc1,strand transfer,0.05 µM,101%
C#CCNCC(C(=O)OCCCC)C(O)c1cccc(OC)c1O,,10 µM,51.7%
Cc1ccc(S(=O)(=O)Nc2cc(Cl)c3ccc(/C=C/c4ccccc4)nc3c2O)cc1,strand transfer,0.05 µM,82%
O=C(c1ccccc1)N(Cc1cc2ccccc2[nH]c1=O)C1CCCC1,strand transfer / absorbance,20 µM,46.2%
O=S(=O)(Nc1cc(Cl)c2ccc(/C=C/c3ccccc3)nc2c1O)c1ccc(Cl)cc1,strand transfer,0.05 µM,82.7%
COC(=O)C(CNCc1cn([C@H]2C[C@H](n3cc(C)c(=O)[nH]c3=O)O[C@@H]2CO)nn1)C(O)c1ccccc1OCc1ccccc1,,10 µM,3.3%
CC(NC(=O)/C=C(\O)C(=O)O)c1ccc(F)cc1,strand transfer,70 µM,40%
COC(=O)C(CCCCNC(=O)/C=C/c1cc(O)c(O)c(O)c1)NC(=O)/C=C/c1cc(O)c(O)c(O)c1,3′ processing,10 µM,100%
CCCCOC(=O)C(CNCc1cn([C@H]2C[C@H](n3cc(C)c(=O)[nH]c3=O)O[C@@H]2CO)nn1)C(O)c1cccc(OCC)c1O,,10 µM,26.7%
COc1ccc2[nH]c(=O)c(CNC3CCCC3)cc2c1,strand transfer / absorbance,20 µM,60.1%
CCCCOC(=O)C(CNCc1cn([C@H]2C[C@H](n3cc(C)c(=O)[nH]c3=O)O[C@@H]2CO)nn1)C(O)c1cc(Cl)ccc1O,,10 µM,45.6%
Cc1nn(Cc2ccc3c(c2)c(=O)c(C(=O)O)cn3Cc2ccc([N+](=O)[O-])cc2)c(C)c1Br,strand transfer,100 µg/mL,<50%
CCCCCCCCCCCCCCCC(=O)NC1C(COP(=O)(O)OC2C(O)C(COP(=O)(O)OC3CC(CO)OC3n3cnc4c(N)ncnc43)OC2n2cnc3c(N)ncnc32)OC(n2cnc3c(N)ncnc32)C1O,,1000 µM,0%
COc1ccc2[nH]c(=O)c(CNC3CC3)cc2c1,strand transfer / absorbance,20 µM,23.3%
O=S(=O)(Nc1cc(Cl)c2ccc(/C=C/c3ccc(Br)cc3)nc2c1O)c1ccc(Cl)cc1,strand transfer,0.05 µM,67.8%
CC[C@H](C)[C@H](NC(=O)[C@@H](N)Cc1c[nH]c2ccccc12)C(=O)N[C@@H](CC(=O)O)C(=O)N[C@@H](CC(N)=O)C(=O)N[C@@H](CC(C)C)C(=O)N[C@@H](CC(=O)O)C(=O)O,,0.39 µM,30%
C#CCNC/C(=C\c1cc(Cl)ccc1OCc1ccccc1)C(=O)OC,,10 µM,9.1%
COc1cccc2cc(CNC3CC3)c(=O)[nH]c12,strand transfer / absorbance,20 µM,31.2%
O=C(/C=C(\O)C(=O)O)NCc1ccc(C(F)(F)F)cc1,strand transfer,70 µM,60%
O=C(NCCC(NC(=O)c1ccc(O)c(O)c1)C(=O)O)c1ccc(O)c(O)c1,3′ processing,10 µM,0%
COc1ccc2[nH]c(=O)c(CN(C(=O)c3ccccc3)C3CCCC3)cc2c1,strand transfer / absorbance,20 µM,39.9%
COC(=O)C(CCCCNC(=O)c1ccc(O)c(O)c1)NC(=O)c1ccc(O)c(O)c1,3′ processing,10 µM,0%
O=S(=O)(Nc1cc(Cl)c2ccc(/C=C/c3ccc(O)cc3)nc2c1O)c1ccc(Cl)cc1,strand transfer,0.05 µM,101.4%
COC(=O)c1cc(O)c(O)c(O)c1,3′ processing,62.5 µM,29.8%
O=C(NCCCC(NC(=O)c1cc(O)c(O)c(O)c1)C(=O)O)c1cc(O)c(O)c(O)c1,3′ processing,10 µM,95%
COc1cccc2cc(CNC3CCCC3)c(=O)[nH]c12,strand transfer / absorbance,20 µM,11.1%
COc1ccc(/C=C/c2ccc3c(Cl)cc(NS(=O)(=O)c4ccc(Cl)cc4)c(O)c3n2)cc1,strand transfer,0.05 µM,58.2%
O=C(NCC(NC(=O)c1ccc(O)c(O)c1)C(=O)O)c1ccc(O)c(O)c1,3′ processing,10 µM,2%
C[C@H](c1ccccc1)N(Cc1ccccc1)C(=O)/C=C(\O)C(=O)O,strand transfer,70 µM,68%

A second listing of 2 rows from above:

compound | method | dose | value
COC(=O)C(CNCc1cn([C@H]2C[C@H](n3cc(C)c(=O)[nH]c3=O)O[C@@H]2CO)nn1)C(O)c1ccccc1OCc1ccccc1 |  | 10 µM | 3.3%
C#CCNCC(C(=O)OCCCC)C(O)c1cccc(OC)c1O |  | 10 µM | 51.7%

Neighbouring rows are from separate reports. Inhibition is in % at the dose shown (toxicity tests: loss of growth or viability).